Data from patent US20100254942A1, “HEPATITIS C ANTIVIRAL COMPOSITIONS AND METHODS” (BIOTRON LIMITED, priority 2007, published 2010).

What follows are compounds tested on bovine viral diarrhea virus (BVDV) strain NADL (assay: BVDV CPE-inhibition assay in MDBK cells). Conditions: TC50 divided by IC50.
Format: cell-based
Protocol: The antiviral evaluation of selected BIT compounds against BVDV was outsourced to Southern Research Institute (SRI), Fredrick Md. USA. A simple cytoprotection format is used in which the antiviral efficacy of the compounds is assessed by their ability to reduce the cytopathic effect of BVDV infection in Madin-Darby bovine kidney cells (Buckwold et al., 2003)
A virus-induced cytopathogenic effects (CPE)-inhibition assay procedure was employed to evaluate compounds for antiviral activity against bovine viral diarrhea virus (BVDV) strain NADL, in Madin-Darby bovine kidney (MDBK) cells passaged in T-75 flasks (1, 2). Antiviral assays were designed to test six half-log concentrations of each compound in triplicate against the challenge virus. Cell controls (CC) containing medium alone, virus-infected cell controls (VC) containing medium and virus, drug cytotoxicity controls containing medium and each drug concentration, reagent controls containing culture medium only (no cells), and drug colorimetric controls containing drug and medium (no cells) are run simultaneously with the test samples. Human interferon-α 2b was used as a positive control compound. On the day preceding the assay, the cells were trypsinized, pelleted, counted and resuspended at 1×10^4/well in tissue culture medium in 96-well flat bottom tissue culture plates in a volume of 100 μl per well. One day following plating of cells, the wells were washed and the medium was replaced with complete medium (2% serum) containing various concentrations of test compound diluted in medium in a half-log series. A pre-titered aliquot of virus was removed from the freezer (−80° C.) just before each experiment. The virus was diluted into tissue culture medium such that the amount of virus added to each well would give complete cell killing at 6-7 days post-infection. The plates were incubated at 37° C. in a humidified atmosphere containing 5% CO2 until maximum CPE is observed in the untreated virus control cultures (˜day 7) Inhibition of CPE by the compound was determined using Cell Titer 96 (Promega). A colorimetric method for determining the number of viable cells was used. A computer program was utilized to calculate the percent of CPE reduction of the virus-infected wells and the percentage cell viability of uninfected drug control wells. […] A therapeutic (selectivity) index (TI50) for each active compound was determined by dividing the TC50 by the IC50.
Drug cytotoxicity was measured separately in uninfected cells. Eleven BIT compounds were tested in the first experiment in which the compounds were added to the cells just prior to infection and were maintained throughout the entire experiment. Two of them, BIT225 and BIT314 returned sub-micromolar IC50 values (see Table 2 below).

Compound	AI
CC(=O)O.Cn1cc(-c2ccc3cc(C(=O)NC(=N)N)ccc3c2)cn1 [BIT314, (6-(1-methylpryazol-4-yl)-2-napthoyl)guanidinium acetate]	54.2
IFN-α	>24.3
Cn1cc(-c2cccc3cc(C(=O)NC(=N)N)ccc23)cn1 [BIT225, 5-(1-methylpyrazol-4-yl)2-naphthoylguanidine]	21.7
COc1ccc2cc(C(=O)NC(=N)N)ccc2c1Br [BIT223, 5-bromo-6-methoxy-2-napthoylguanidine]	>6.85
